Pooled drug test results. Numbers come from NIAID ChemDB, via PubChem.

Shared fields: tests in culture; species: Candida parapsilosis; read by: broth dilution; endpoint: MIC

An empty or dashed field is not shown. Neighbouring rows are from separate reports.

compound,strain,conditions,result
O=C1c2ccccc2CC1Cn1ccnc1,RTCC 1018,-,>64 µg/mL
O=C(O[C@@H]1COC(=O)c2cc(O)c(O)c(O)c2-c2c(cc(O)c(O)c2O)C(=O)OC1C1OC(=O)c2cc(O)c(O)c(O)c2-c2c(O)c(O)c(O)c3c2C(=O)OC1[C@H]3O)c1cc(O)c(O)c(O)c1,ATCC 22019,-,580 µg/mL
C[C@@H](c1ncncc1F)[C@](O)(Cn1cncn1)c1ccc(F)cc1F,ATCC 96139,-,0.0625 µg/mL
OC(CCn1ccnc1)c1ccc(-c2ccccc2)cc1,RTCC 1079,-,64 µg/mL
Cc1nn2c(-c3ccncc3)nnc2s/c1=N/Nc1ccccc1,ATCC 22019,-,12.5 µg/mL
C[C@H]1[C@H](O)[C@@H](C)/C=C/C=C/C=C/C=C/C=C/C=C/C=C/[C@H](O[C@@H]2O[C@H](C)[C@@H](O)[C@H](N)[C@@H]2O)C[C@@H]2O[C@](O)(C[C@@H](O)C[C@@H](O)CC[C@H](O)[C@@H](O)C[C@@H](O)CC(=O)O[C@H]1C)C[C@H](O)[C@H]2C(=O)O,NBRC 1396,48 h,1 µg/mL
COc1ccc(-c2cc(=O)c3c(O)c([C@@H]4O[C@H](CO)[C@@H](O)[C@H](O)[C@H]4O)c(O)cc3o2)cc1O,ATCC 22019,-,>500 µg/mL
O=C(/C=C/c1cccc(Cl)c1Cl)c1c[nH]c2ccccc12,NRRL Y-12696,-,25 µg/mL
Nn1c(SCC(O)(Cn2cncn2)c2ccc(Cl)cc2Cl)nnc1-c1ccc(F)cc1,ATCC 22019,-,>64 µg/mL
CC(C)S(=O)(=O)N1CCN(c2cnn(-c3cc(F)cc(F)c3)c(=O)c2OC2CCC(F)C2)CC1,C231,-,0.25 µg/mL
CCN1C(=O)CS/C1=N/NC(=O)c1cn2ccccc2n1,ATCC 22019,-,64 µg/mL
O=C(CCn1ccnc1)c1cccc(C(O)c2ccc(Cl)c(Cl)c2)c1,RTCC 1079,-,32 µg/mL
Cc1nn2c(-c3ccncc3)nnc2sc1=NNc1ccc(Cl)cc1,ATCC 22019,-,6.25 µg/mL
O=C(/C=C/c1cc(Cl)cc(Cl)c1)c1c[nH]c2ccccc12,NRRL Y-12696,-,25 µg/mL
C[C@H]1[C@H](O)[C@@H](C)/C=C/C=C/C=C/C=C/C=C/C=C/C=C/[C@H](O[C@@H]2O[C@H](C)[C@@H](O)[C@H](N)[C@@H]2O)C[C@@H]2O[C@](O)(C[C@@H](O)C[C@@H](O)CC[C@H](O)[C@@H](O)C[C@@H](O)CC(=O)O[C@H]1C)C[C@H](O)[C@H]2C(=O)O,90018,-,0.06 µg/mL
CCOc1ccc2nc3cc(N=C4NC(=O)/C(=C\c5ccc([N+](=O)[O-])cc5)S4)ccc3c(N)c2c1,-,-,750 µg/mL
CCC(C)CC(C)CCCCCCCCC(=O)N[C@H]1C[C@@H](O)[C@H](NCCN)NC(=O)[C@@H]2[C@@H](O)CCN2C(=O)[C@H]([C@H](O)CCN)NC(=O)[C@H]([C@H](O)[C@@H](O)c2ccc(O)cc2)NC(=O)[C@@H]2C[C@@H](O)CN2C(=O)[C@H]([C@@H](C)O)NC1=O,896/1,-,1 µg/mL
O=C1C(=O)c2ccccc2C2=C1CC(CI)O2,Clinical isolate,-,40.32 µg/mL
Brc1ccc(Nc2nnc(-c3cn4ccccc4n3)o2)cc1,ATCC 22019,-,64 µg/mL
CC(C)(O)c1cn(-c2ccc(Cl)cc2)nn1,URM 4984,-,128 µg/mL
C/C(=N\NC([S-])=Nc1ccccc1F)c1ccccn1.CCC[CH2][Sn+3],ATCC 22019,-,14.98 µM
Cc1ccc(-c2nnc(SCC(O)(Cn3cncn3)c3ccc(F)cc3F)n2N)cc1,ATCC 22019,-,>64 µg/mL
Nc1nc(=O)n([C@H]2O[C@@H](CO)[C@H](O)[C@@H]2O)cc1F,ATCC 22019,-,0.75 µg/mL
CCCC[C@@H](C)/C=C(C)/C=C(\C)C(=O)N/C(=C/[C@@](C)(O)/C=C/C=C/C=C/C(=O)NC1=C(O)CCC1=O)C(=O)[C@@H]1CO1,-,-,25 µM
C[C@H]1[C@H](O)[C@@H](C)/C=C/C=C/C=C/C=C/C=C/C=C/C=C/[C@H](O[C@@H]2O[C@H](C)[C@@H](O)[C@H](N)[C@@H]2O)C[C@@H]2O[C@](O)(C[C@@H](O)C[C@@H](O)CC[C@H](O)[C@@H](O)C[C@@H](O)CC(=O)O[C@H]1C)C[C@H](O)[C@H]2C(=O)O,ATCC 22019,-,0.25 µg/mL
OC(CCn1ccnc1)c1cccc(C(O)c2ccc(Cl)c(Cl)c2)c1,RTCC 1079,-,>64 µg/mL
CC(=O)N1CCN(c2ccc(OC[C@H]3CO[C@](Cn4ccnc4)(c4ccc(Cl)cc4Cl)O3)cc2)CC1,NRRL Y-12696,-,1.56 µg/mL
COc1ccc(-c2nnc(SCC(O)(Cn3cncn3)c3ccc(F)cc3F)n2N)cc1,ATCC 22019,-,>64 µg/mL
C[C@H]1[C@H](O)[C@@H](C)/C=C/C=C/C=C/C=C/C=C/C=C/C=C/[C@H](O[C@@H]2O[C@H](C)[C@@H](O)[C@H](N)[C@@H]2O)C[C@@H]2O[C@](O)(C[C@@H](O)C[C@@H](O)CC[C@H](O)[C@@H](O)C[C@@H](O)CC(=O)O[C@H]1C)C[C@H](O)[C@H]2C(=O)O,22019,-,0.5 µg/mL
CO[C@@]12OC(=O)C(C)=C1C1=C3[C@](C)([C@@H]4C[C@@H]4[C@@]3(O)C[C@@H]3[C@]14OC(=O)C1=C4C[C@H]4[C@](O)(COC(=O)/C(C)=C/COC(=O)CCC(=O)OC1)[C@H]1C[C@H]1[C@]34C)[C@H]2O,ATCC 22019,-,>256 µg/mL
CCCNC(=S)NNC(=O)c1cn2ccccc2n1,ATCC 22019,-,64 µg/mL
O=C(CCn1ccnc1)c1ccc(-c2ccccc2)cc1,RTCC 1018,-,64 µg/mL
CCC(C)n1ncn(-c2ccc(N3CCN(c4ccc(OC[C@H]5CO[C@](Cn6cncn6)(c6ccc(Cl)cc6Cl)O5)cc4)CC3)cc2)c1=O,86U,-,1 µM
O=C(NNC(=S)Nc1ccccc1)c1cn2ccccc2n1,ATCC 22019,-,32 µg/mL
CCC[CH2][Sn+3].O=[N+]([O-])c1ccccc1N=C([S-])N/N=C(\c1ccccc1)c1ccccn1,ATCC 22019,-,6.42 µM
Cc1ccc(NC(=S)NNC(=O)c2cn3ccccc3n2)cc1,ATCC 22019,-,64 µg/mL
OC(Cn1cncn1)(Cn1cncn1)c1ccc(F)cc1F,ATCC 22019,-,0.2 µg/mL
COc1ccc(N/N=c2/sc3nnc(-c4ccncc4)n3nc2C)cc1,ATCC 22019,-,25 µg/mL
Cc1coc2c1C(=O)[C@@H]1[C@@](C)(C2)[C@H](O)CC[C@@]1(C)O,ATCC 22019,-,>256 µg/mL
CCCCCCCC/C=C\CCCCCCCC(=O)NCCCN,ATCC 22019,-,128 µg/mL
Nc1scc2c1c(=O)oc1ccccc12,ATCC 22019,-,8 µg/mL
C/C(=N\NC([S-])=Nc1ccccc1[N+](=O)[O-])c1ccccn1.CCC[CH2][Sn+3],ATCC 22019,-,7.13 µM
O=C(CCn1ccnc1)c1cccc(C(O)c2ccc(Br)cc2)c1,RTCC 1079,-,>64 µg/mL
c1ccc(Nc2nnc(-c3cn4ccccc4n3)o2)cc1,ATCC 22019,-,32 µg/mL
Cc1ccc(N2N=C(c3c[nH]c4ccccc34)CC2c2ccc(Cl)c(Cl)c2)cc1,NRRL Y-12696,-,100 µg/mL
O=C1C=CC[C@H](/C=C/c2ccccc2)O1,-,-,62.1 µg/mL
Fc1ccc(Nc2nnc(-c3cn4ccccc4n3)o2)cc1,ATCC 22019,-,64 µg/mL
CCCCCCCCCCCCCCCC(=O)NC(CCCCN)C(=O)NC(CCCCN)C(N)=O,ATCC 22019,-,0.5 µg/mL
O=C(NNC(=S)Nc1ccc(Cl)cc1)c1cn2ccccc2n1,ATCC 22019,-,32 µg/mL
CC1=C2C(=O)c3c(C)coc3C[C@@]2(C)[C@H](O)C[C@H]1O,ATCC 22019,-,>256 µg/mL